Experimental data: patent US7728034B2, “Treating neurological disorders using selective antagonists of persistent sodium current” (Allergan, Inc., priority 2003, dated 2010)

Chains of the proteins cited; added tags and fusions are not shown.
UniProt Q9NY46, whole entry: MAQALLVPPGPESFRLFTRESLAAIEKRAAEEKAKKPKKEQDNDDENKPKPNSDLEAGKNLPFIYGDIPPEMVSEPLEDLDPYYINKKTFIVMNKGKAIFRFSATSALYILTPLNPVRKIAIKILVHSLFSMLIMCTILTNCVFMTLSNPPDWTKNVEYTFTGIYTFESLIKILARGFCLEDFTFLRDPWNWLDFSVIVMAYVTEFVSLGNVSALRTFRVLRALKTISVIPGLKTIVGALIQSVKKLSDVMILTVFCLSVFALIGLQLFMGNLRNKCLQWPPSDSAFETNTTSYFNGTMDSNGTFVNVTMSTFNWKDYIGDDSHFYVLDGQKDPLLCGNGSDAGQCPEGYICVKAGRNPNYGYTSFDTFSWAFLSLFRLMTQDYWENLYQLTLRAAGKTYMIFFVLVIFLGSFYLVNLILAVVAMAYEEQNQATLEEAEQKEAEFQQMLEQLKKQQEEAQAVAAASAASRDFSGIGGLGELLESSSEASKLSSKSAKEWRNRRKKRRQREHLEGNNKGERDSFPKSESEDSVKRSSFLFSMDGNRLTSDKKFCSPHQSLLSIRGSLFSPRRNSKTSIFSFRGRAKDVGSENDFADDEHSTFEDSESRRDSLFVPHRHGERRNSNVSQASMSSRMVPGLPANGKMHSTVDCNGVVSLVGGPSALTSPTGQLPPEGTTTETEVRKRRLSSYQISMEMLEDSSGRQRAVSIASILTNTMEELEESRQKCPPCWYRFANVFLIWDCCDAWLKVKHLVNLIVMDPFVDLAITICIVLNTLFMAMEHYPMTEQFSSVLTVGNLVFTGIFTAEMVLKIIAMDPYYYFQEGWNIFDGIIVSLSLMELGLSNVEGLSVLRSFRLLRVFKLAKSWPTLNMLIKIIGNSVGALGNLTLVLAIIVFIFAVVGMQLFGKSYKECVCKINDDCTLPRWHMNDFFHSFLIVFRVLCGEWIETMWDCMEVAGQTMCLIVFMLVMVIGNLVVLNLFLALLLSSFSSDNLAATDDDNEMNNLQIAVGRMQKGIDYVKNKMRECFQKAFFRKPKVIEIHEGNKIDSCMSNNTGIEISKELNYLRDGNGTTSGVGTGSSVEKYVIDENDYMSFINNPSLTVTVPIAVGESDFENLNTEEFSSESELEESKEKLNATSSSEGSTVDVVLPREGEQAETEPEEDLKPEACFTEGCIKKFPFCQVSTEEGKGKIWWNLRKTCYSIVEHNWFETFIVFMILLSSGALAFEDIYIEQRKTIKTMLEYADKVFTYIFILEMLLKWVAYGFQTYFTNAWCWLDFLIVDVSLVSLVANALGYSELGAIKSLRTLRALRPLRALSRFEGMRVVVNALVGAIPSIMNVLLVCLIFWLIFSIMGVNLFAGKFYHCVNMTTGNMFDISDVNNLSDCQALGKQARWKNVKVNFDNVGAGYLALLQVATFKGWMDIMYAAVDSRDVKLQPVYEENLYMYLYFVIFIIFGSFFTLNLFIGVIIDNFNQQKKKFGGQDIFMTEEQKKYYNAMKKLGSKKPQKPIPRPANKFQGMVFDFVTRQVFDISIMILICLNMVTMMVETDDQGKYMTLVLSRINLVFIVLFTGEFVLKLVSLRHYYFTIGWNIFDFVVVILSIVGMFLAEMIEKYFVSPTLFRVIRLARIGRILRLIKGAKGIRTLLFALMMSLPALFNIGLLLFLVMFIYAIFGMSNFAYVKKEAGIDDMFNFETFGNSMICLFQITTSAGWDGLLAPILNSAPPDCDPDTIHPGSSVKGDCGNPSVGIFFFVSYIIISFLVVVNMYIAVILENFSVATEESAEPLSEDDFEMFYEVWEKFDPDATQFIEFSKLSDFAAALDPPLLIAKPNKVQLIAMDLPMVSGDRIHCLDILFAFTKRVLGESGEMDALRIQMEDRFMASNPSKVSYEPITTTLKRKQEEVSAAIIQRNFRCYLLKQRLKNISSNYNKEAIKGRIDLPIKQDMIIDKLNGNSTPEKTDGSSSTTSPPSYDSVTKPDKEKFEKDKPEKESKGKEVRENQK

Molecular target: HEK cells expressing Nav1.3 channels (Homo sapiens, UniProt Q9NY46)

Substance: tetrotoxin [TTX, reference compound]
- block of the persistent current: completely blocked
- block of the transient current: completely blocked
